Values from PubChem BioAssay AID504761 (Drosophila RNAi Screening Center, 2011)
Aim: 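Genome-wide fly cell screen for genes dengue virus requires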 (primary screen). System: D.Mel-2 cells from Drosophila. Reagent: long dsRNA against Drosophila genes. Treatment: infection with dengue virus type 2; dose and infection time not stated. Measurement: 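Cells stained for dengue envelope protein and imaged; percent of infected cells per well on duplicate plates, ranked by infection, with stained nuclei counted for cell number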. Reading the numbers: infection score: higher = more virus-infected cells; cell count: higher = more cells in the well. Rule for the call: 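Very low infection ranking in both replicate wells (chance probability at most 0.065), then a retest showing infection dropped 1.5-fold or more at p below 0.05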. Meaning of the calls: active = confirmed: knock-down lowers infection; inactive = not picked or not confirmed.
In all, the deposit lists about 22,000 reagents; shown is a random part of those that have a named target and a result. Over the whole deposit, 116 (0.52%) were called active. 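Calls depend on retest data that are not deposited; infection was ranked per plate without normalising between plates; the unit of the infection score is not given.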 Raw values are not corrected between plates. Entries without a mark were called inactive. Further read-outs or replicates are left out here. Not given: the amount of reagent, the time to read-out.

Depletion of CG14417 [DRSC18638] came out at: infection score, replicate 1 = 1.06; cell count, replicate 1 = 471. Depletion of CG42271 [DRSC19809] came out at: infection score, replicate 1 = 2.22; cell count, replicate 1 = 5894. Depletion of CG42271 [DRSC22894] gave: infection score, replicate 1 = 1.37; cell count, replicate 1 = 5835. Depletion of CG42271 [DRSC27249] resulted in: infection score, replicate 1 = 5.5; cell count, replicate 1 = 6377. Silencing of CG42271 [DRSC27338] resulted in: infection score, replicate 1 = 24.3; cell count, replicate 1 = 6598. Silencing of sff [DRSC10590] gave: infection score, replicate 1 = 5.38; cell count, replicate 1 = 6339.

After knock-down of beat-Vc [DRSC12927], the screen gave infection score, replicate 1 = 4.55; cell count, replicate 1 = 5974. beat-Vc [DRSC14849] gave infection score, replicate 1 = 1.39; cell count, replicate 1 = 6278. CG31445 [DRSC14443] scored infection score, replicate 1 = 1.77; cell count, replicate 1 = 5999. After knock-down of CG31445 [DRSC28642], the screen gave infection score, replicate 1 = 27.7; cell count, replicate 1 = 4222.

Ordered by “infection score, replicate 1” (low to high): some entries from above.
beat-Vc [DRSC14849]: infection score, replicate 1 = 1.39; cell count, replicate 1 = 6278
beat-Vc [DRSC12927]: infection score, replicate 1 = 4.55; cell count, replicate 1 = 5974
sff [DRSC10590]: infection score, replicate 1 = 5.38; cell count, replicate 1 = 6339

More records:
For CG4892 [DRSC01937] the deposit lists infection score, replicate 1 = 5.43; cell count, replicate 1 = 1031. With knock-down of Gs2 [DRSC20250], the record shows infection score, replicate 1 = 20.6; cell count, replicate 1 = 6080. Gs2 [DRSC26818] scored infection score, replicate 1 = 6.83; cell count, replicate 1 = 6676. For Gbp2 [DRSC06069], the entry reads infection score, replicate 1 = 15.6; cell count, replicate 1 = 5665. Against mod [DRSC16999] the deposit lists infection score, replicate 1 = 5.2; cell count, replicate 1 = 6148. mod [DRSC28409] gave infection score, replicate 1 = 11.5; cell count, replicate 1 = 2963.

zen2 [DRSC12633] gave infection score, replicate 1 = 1.79; cell count, replicate 1 = 6660. zen2 [DRSC27908] gave infection score, replicate 1 = 17.1; cell count, replicate 1 = 6518. After knock-down of CG17097 [DRSC02569] the results were infection score, replicate 1 = 12.6; cell count, replicate 1 = 5752. For CG17097 [DRSC24178] the deposit lists infection score, replicate 1 = 6.1; cell count, replicate 1 = 5936. Against Eig71Ej [DRSC11157] the deposit lists infection score, replicate 1 = 2.08; cell count, replicate 1 = 6050. With knock-down of Eig71Ej [DRSC28224], the record shows infection score, replicate 1 = 10.5; cell count, replicate 1 = 3380.
